The supplement of paper PMC9931576
Human monoclonal antibodies against the spike receptor-binding domain (heavy:light variable regions). IC50 against pseudoviruses bearing the spike of naturally observed variants; lower = stronger; >10 µg/ml means not reached at the top dose. No active / inactive call. The stated detection limit is 0.0005 µg/ml; values near or below 0.001 µg/ml lie at the floor of the assay.

What was measured:
Experiment in all cases: pseudovirus neutralization IC50; higher = weaker neutralization
[1] = molecular target: SARS-CoV-2 Omicron BA.1 spike pseudovirus
Description: (§1)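 Single-round VSV luciferase pseudovirus mixed with antibody dilutions for 1 h and put on Huh-7 cells for about a day; IC50 from the dose curve.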

[2] = molecular target: SARS-CoV-2 Omicron BA.2 spike pseudovirus
Description: as §1

[3] = molecular target: SARS-CoV-2 Omicron BA.2.75 spike pseudovirus
Description: as §1

[4] = molecular target: SARS-CoV-2 Omicron BA.5 spike pseudovirus
Description: as §1

[5] = molecular target: SARS-CoV-2 Omicron BQ.1.1 spike pseudovirus
Description: as §1

[6] = molecular target: SARS-CoV-2 Omicron XBB spike pseudovirus
Description: as §1

[7] = molecular target: SARS-CoV-2 early D614G spike pseudovirus
Description: as §1

B1: XGv-279 (protein)
chain 1: QVQLQESGPGLVKPSETLSLTCTVSGGSISSYYWSWIRQPPGKGLEWIGYFYSSGNTNYKPSLKSRVTISVDTSKNQLSLRLSSVTAADTAVYYCARYSKEDSQGYVSNYFFDYWGQGTLVTVSS
chain 2: QSALTQPASVSGSPGQSITISCTGTSSDVGSFNLVSWYQQHPGTAPKLMIYDVSKRPSGVSNRFSGSKSGNTASLTISGLQAEDEAEYYCYSYAGSSTFVFGTGTQVTVL
- pseudovirus neutralization IC50 [1]: 6.76 µg/mL
- pseudovirus neutralization IC50 [2]: 4.99 µg/mL
- pseudovirus neutralization IC50 [3]: 4.46 µg/mL
- pseudovirus neutralization IC50 [4]: > 10 µg/mL
- pseudovirus neutralization IC50 [5]: > 10 µg/mL
- pseudovirus neutralization IC50 [6]: > 10 µg/mL
- pseudovirus neutralization IC50 [7]: 0.00548 µg/mL

B2: XGv-199 (protein)
chain 1: QVQLQESGPGLVRPSQTLSLSCTVSGSSISGGGFSWSWVRQHPGKGLEWIAYISYSGSTYYNPSLKSRLTISRDTSKNQFFLRVNSVYAADTAVYYCARIPVNGWNNWFDPWGQGTLVTVSS
chain 2: SYVLTQPPSVSVAPGKTASITCGGNNIGSKSVHWYQRKPGQAPVLVIYYDGDRPSGIPERFSGSNSGNTATLTISRVEAGDEADYYCQVWDSTTDHPVFGGGTKLTVL
- pseudovirus neutralization IC50 [1]: 0.229 µg/mL
- pseudovirus neutralization IC50 [2]: 0.449 µg/mL
- pseudovirus neutralization IC50 [3]: 0.664 µg/mL
- pseudovirus neutralization IC50 [4]: 0.532 µg/mL
- pseudovirus neutralization IC50 [5]: > 10 µg/mL
- pseudovirus neutralization IC50 [6]: > 10 µg/mL
- pseudovirus neutralization IC50 [7]: 0.182 µg/mL

B3: XGv-214 (protein)
chain 1: QVQLVQSGAEVKKPGASVRVSCKASGYILTRFGIGWVRQAPGQGLEWMGWISANNGTTTYTQKLQGRVTMTTDIATSTAYMELRSLRSDDTAVYYCARGTDWGIGWFDPWGQGTLVTVSS
chain 2: SYVLTQPPSVSVAPEKPARITCGGNNIGSKSVHWYQQKPGQAPVLVIYYDGDRPSGIPERFSGSNSGNTATLTISRVEAGDEADYYCQVWDSNSDSVVFGGGTKLTVL
- pseudovirus neutralization IC50 [1]: 2.69 µg/mL
- pseudovirus neutralization IC50 [2]: 2.88 µg/mL
- pseudovirus neutralization IC50 [3]: 2.15 µg/mL
- pseudovirus neutralization IC50 [4]: > 10 µg/mL
- pseudovirus neutralization IC50 [5]: > 10 µg/mL
- pseudovirus neutralization IC50 [6]: > 10 µg/mL
- pseudovirus neutralization IC50 [7]: 0.134 µg/mL

B4: XGv-291 (protein)
chain 1: QVQLVQSGAEVKKPGASVEISCKASGYSFTKYYVHWVRQAPGQGLEWMGIVNPNGGASYAQKFQGRVTMTSDTSTTTFYMEVSGLRSDDTAVYYCARAEGSSWLGWFDPWGQGTLVTVSS
chain 2: QSVLTQPPSASGTPGQRVTISCSGSTSNIGSKDVYWYQQLPGTAPKLLIYRNNQRPSGAPDRFSASKSGTSASLAISGLRSEDEADYYCAVWDDGLSASGWLFGGGTKLTVL
- pseudovirus neutralization IC50 [1]: 0.0519 µg/mL
- pseudovirus neutralization IC50 [2]: 0.0118 µg/mL
- pseudovirus neutralization IC50 [3]: 0.022 µg/mL
- pseudovirus neutralization IC50 [4]: 0.00859 µg/mL
- pseudovirus neutralization IC50 [5]: 0.229 µg/mL
- pseudovirus neutralization IC50 [6]: > 10 µg/mL
- pseudovirus neutralization IC50 [7]: 0.00243 µg/mL

B5: XGv-251 (protein)
chain 1: QVQLVQSGAEVKKPGSSVKVSCKASGGTFSSFTVNWVRQAPGQGLEWMGGIIPILNIPNYAQKFQGRVTISADKSTSTAYMELSSLRSEDTAVFYCAREGPYYESSGLQSNWFDSWGQGTLVTVSS
chain 2: QSVLTQPPSVSGAPGQRVTISCTGSSSNIGAGYDVHWYQQLPRTAPKLLIYGNTNRPSGVPDRFSGSKSGTSVFLAITGLQAEDEADYYCQSYDSSLSGSVFGGGTKLTV
- pseudovirus neutralization IC50 [1]: 0.407 µg/mL
- pseudovirus neutralization IC50 [2]: 0.35 µg/mL
- pseudovirus neutralization IC50 [3]: 0.24 µg/mL
- pseudovirus neutralization IC50 [4]: > 10 µg/mL
- pseudovirus neutralization IC50 [5]: > 10 µg/mL
- pseudovirus neutralization IC50 [6]: > 10 µg/mL
- pseudovirus neutralization IC50 [7]: 0.302 µg/mL

B6: XGv-191 (protein)
chain 1: QVQLVQSGAEVKKPGSSVKVSCKTSGGTFISQVINWVRQAPGQGLEWMGRIIPVVGTPTYAQKFQGRVTITADKSTNTAYMELRSLRSGDTAVYYCASVSESTDTSGYSLGYWGQGTQVTVSS
chain 2: DIVMTQSPLSLPVTPGEPASISCRSSQSLLHSNGHNYLDWYLQKPGQSPQLVIYMGSNRASGVPDRFSGSGSGTDFTLKISRVEAEDVGVYYCMQALQTPLTFGGGTKVEIK
- pseudovirus neutralization IC50 [1]: 9.13 µg/mL
- pseudovirus neutralization IC50 [2]: 7.29 µg/mL
- pseudovirus neutralization IC50 [3]: > 10 µg/mL
- pseudovirus neutralization IC50 [4]: > 10 µg/mL
- pseudovirus neutralization IC50 [5]: > 10 µg/mL
- pseudovirus neutralization IC50 [6]: > 10 µg/mL
- pseudovirus neutralization IC50 [7]: 0.017 µg/mL

B7: XGv-292 (protein)
chain 1: QVQLVQSGAEVKKPGASVKVSCKASGYTFTNYYMHWVRQAPGQGLEWMGIINPSGISASYAQRFQGRVTMTRDTSTSTFYMEMRSLRSEDTAVYYCARAEGSSWLGWFDPWGQGTLVTVSS
chain 2: QSVLTQPPSASGTPGQRVTISCSGSSSNIGSHYVYWYQQLPGEAPKLLIYRNNQRPSGVPDRFSGSKSGTSASLAISGLRSEDEADFYCAVWDDGLSGSGWVFGGGT
- pseudovirus neutralization IC50 [1]: 1.17 µg/mL
- pseudovirus neutralization IC50 [2]: 0.823 µg/mL
- pseudovirus neutralization IC50 [3]: 1.36 µg/mL
- pseudovirus neutralization IC50 [4]: 0.506 µg/mL
- pseudovirus neutralization IC50 [5]: > 10 µg/mL
- pseudovirus neutralization IC50 [6]: > 10 µg/mL
- pseudovirus neutralization IC50 [7]: 0.0237 µg/mL

B8: XGv-289 (protein)
chain 1: QVQLVQSGAEVKKPGASLKVSCRASGYTFTSHFIHWVRQAPGQGLEWMGIINPSGGASYAQNFRDRVTMTTDPSTSTVYMELGSLRSEDTAVYYCARAEGSSWLGWFDPWGQGTLVTVSS
chain 2: QSVLTQPPSASGTPGQRVTIPCSGSSSNIGNNYVYWYQQLPGTAPKLLVYGNNQRPSGVPDRFSVSKSGTSASLAISGLRSEDEADYYCAAWDDGLSGSGWVFGGGTKLTVL
- pseudovirus neutralization IC50 [1]: 0.0162 µg/mL
- pseudovirus neutralization IC50 [2]: 0.0145 µg/mL
- pseudovirus neutralization IC50 [3]: 0.0168 µg/mL
- pseudovirus neutralization IC50 [4]: 0.0177 µg/mL
- pseudovirus neutralization IC50 [5]: 0.991 µg/mL
- pseudovirus neutralization IC50 [6]: > 10 µg/mL
- pseudovirus neutralization IC50 [7]: 0.00115 µg/mL

B9: XGv-293 (protein)
chain 1: QVQLVQSGAEVKKPGASVKVSCKASGYTFTSYFLHWVRQAPGQGLEWLGIIDPSGGASYAQKFQGRVTMTSDTSTSTVYMDLGSLRSEDTAVYYCARAEGTSWLGWFDPWGQGSLVTVSS
chain 2: QSVLTQPPSASGTPGQRVTISCSGSSSNIGTNYVYWYQQLPGTAPKLLIYRNYQRPSGVPDRFSGSKSGTSASLAISGLRSEDEAEYYCAAWDNGLSGSGWVFGGGTKLTVL
- pseudovirus neutralization IC50 [1]: 0.00366 µg/mL
- pseudovirus neutralization IC50 [2]: 0.00201 µg/mL
- pseudovirus neutralization IC50 [3]: 0.00307 µg/mL
- pseudovirus neutralization IC50 [4]: 0.00193 µg/mL
- pseudovirus neutralization IC50 [5]: 0.0158 µg/mL
- pseudovirus neutralization IC50 [6]: > 10 µg/mL
- pseudovirus neutralization IC50 [7]: 0.00112 µg/mL

B10: XGv-235 (protein)
chain 1: EVQLVQSGAEVKKPGESLKISCKASGYSFISHWIAWVRQKPGKGLEWMGIIYPGDSDTRYSPSFQGQVTISVDKSIGTAYLQWRSLKSSDTAIYYCARGPNLYNWFDTWGQGTLVTVSS
chain 2: QSVLTQPPSASGTPGQRVTISCSGSSSNIGSNTVNWYQQLPGTAPKLLIYNNGQRPSGVPDRFSGSKSGTSASLAISGLQSEDEADFYCAAWDDSLNALVFGGGTRVTV
- pseudovirus neutralization IC50 [1]: 0.192 µg/mL
- pseudovirus neutralization IC50 [2]: 0.0654 µg/mL
- pseudovirus neutralization IC50 [3]: 0.293 µg/mL
- pseudovirus neutralization IC50 [4]: 0.257 µg/mL
- pseudovirus neutralization IC50 [7]: 0.704 µg/mL

B11: XGv-263 (protein)
chain 1: QVQLVQSGTELKKPGASVKVSCKAFGYTFSSYGISWVRQAPGQGLEWMGWISGNNGNTNYAQKFQGRVTMTTDTSTSTAYMDLRSLRSDDTAVYYCARGVYCSAANCVRASTRISHYYYMDVWGKGTTVTVSS
chain 2: NFMLTQPHSVSESPGKTVTISCTRSSGSIASHYVQWYQQRPGSYPTTVIYEDDQRPSGVPDRFSGSIDSSSNSASLTISGLKTEDEADYYCQSYDSSFSWVFGGGTKLTV
- pseudovirus neutralization IC50 [1]: > 10 µg/mL
- pseudovirus neutralization IC50 [2]: 0.0124 µg/mL
- pseudovirus neutralization IC50 [3]: 2.61 µg/mL
- pseudovirus neutralization IC50 [4]: 2.33 µg/mL
- pseudovirus neutralization IC50 [5]: > 10 µg/mL
- pseudovirus neutralization IC50 [6]: > 10 µg/mL
- pseudovirus neutralization IC50 [7]: 0.00242 µg/mL

B12: XGv-282 (protein)
chain 1: QVQLVQSGAEVKKPGSSVKVSCKASGDTFSSYTFSWVRQAPGQGLEWMGRSIPIVGKAIYAQEFQGRVTISADRSTTTVYMELSSLRSDDTAVYYCARDQSGFDFFYYDHWGQGTLVAVSS
chain 2: QSVLTQPPSASGTPGQRVTISCSGSGSNIGSNTINWYQQLPGTAPKVLIYRNNERPSGVPDRFSGSKSGTSASLTISGLQSEDEAYYHCAAWDDSLNGPVFGGGTKLTVL
- pseudovirus neutralization IC50 [1]: 3.33 µg/mL
- pseudovirus neutralization IC50 [2]: 0.000965 µg/mL
- pseudovirus neutralization IC50 [3]: 0.0276 µg/mL
- pseudovirus neutralization IC50 [4]: 0.000938 µg/mL
- pseudovirus neutralization IC50 [5]: 0.0374 µg/mL
- pseudovirus neutralization IC50 [6]: > 10 µg/mL
- pseudovirus neutralization IC50 [7]: 0.00228 µg/mL

B13: XGv-20 (protein)
chain 1: QVQLVESGGGVVQPGRSLRLSCPASGFTFSIYGIHWVRQAPGKGLEWVAAISYDGSNEYYADSVKGRFTISRDNSKNTLFLQMNRLKAEDTAMYFCAKALFTGWFGESPLDYWGRGTLVTVSS
chain 2: EIVMTQSPATLSLSPGERATLSCRASQSISSNLAWYQQKPGQAPRLLIYGASTRATGIPARFSGSGSGTEFTLTISSLQSEDFAIYYCQHYNNWPPYTFGQGTKLEIK
- pseudovirus neutralization IC50 [1]: 2.74 µg/mL
- pseudovirus neutralization IC50 [2]: 1.93 µg/mL
- pseudovirus neutralization IC50 [3]: 5.09 µg/mL
- pseudovirus neutralization IC50 [4]: 1.93 µg/mL
- pseudovirus neutralization IC50 [5]: > 10 µg/mL
- pseudovirus neutralization IC50 [6]: > 10 µg/mL
- pseudovirus neutralization IC50 [7]: 2.76 µg/mL
